# Experimental data as given in patent publication US20220033460A1, “IDENTIFICATION AND USE OF T CELL EPITOPES IN DESIGNING DIAGNOSTIC AND THERAPEUTIC APPROACHES FOR COVID-19” (priority 2020, published 2022).
# System: CD8+ T cells
# Format: cell-based, human
# Settings: cells of the TCR clonotype specific for the epitope / HLA class I of the same line
row,Molecule,No. of Cells
1,TCR_87: TCR to … / A*02:01 (protein) TCR alpha: RKEVEQDPGPFNVPEGATVAFNCTYSNSASQSFFWYRQDCRKEPKLLMSVYSSGNEDGRFTAQLNRASQYISLLIRDSKLSDSATYLCVVNQYNDMRFGAGTRLTVKPNIQNPDPAVYQLRDSKSSDKSVCLFTDFDSQTNVSQSKDSDVYITDKTVLDMRSMDFKSNSAVAWSNKSDFACANAFNNSIIPEDTFFPSPESSCDVKLVEKSFETDTNLNFQNLSVIGFRILLLKVAGFNLLMTLRLWSS TCR beta: DAGVIQSPRHEVTEMGQEVTLRCKPISGHNSLFWYRQTMMRGLELLIYFNNNVPIDDSGMPEDRFSAKMPNASFSTLKIQPSEPRDSAVYFCASFQDQNTGELFFGEGSRLTVLEDLKNVFPPKVAVFEPSEAEISHTQKATLVCLATGFYPDHVELSWWVNGKEVHSGVSTDPQPLKEQPALNDSRYCLSSRLRVSATFWQNPRNHFRCQVQFYGLSENDEWTQDRAKPVTQIVSAEAWGRADCGFTSESYQQGVLSATILYEILLGKATLYAVLVSALVLMAMVKRKDSRG,2
2,TCR_91: TCR to … / B*07:02 (protein) TCR alpha: DQQVKQNSPSLSVQEGRISILNCDYTNSMFDYFLWYKKYPAEGPTFLISISSIKDKNEDGRFTVFLNKSAKHLSLHIVPSQPGDSAVYFCAARYSGNTPLVFGKGTRLSVIANIQNPDPAVYQLRDSKSSDKSVCLFTDFDSQTNVSQSKDSDVYITDKTVLDMRSMDFKSNSAVAWSNKSDFACANAFNNSIIPEDTFFPSPESSCDVKLVEKSFETDTNLNFQNLSVIGFRILLLKVAGFNLLMTLRLWSS TCR beta: DAGVIQSPRHEVTEMGQEVTLRCKPISGHDYLFWYRQTMMRGLELLIYFNNNVPIDDSGMPEDRFSAKMPNASFSTLKIQPSEPRDSAVYFCASSTGSNTGELFFGEGSRLTVLEDLKNVFPPKVAVFEPSEAEISHTQKATLVCLATGFYPDHVELSWWVNGKEVHSGVSTDPQPLKEQPALNDSRYCLSSRLRVSATFWQNPRNHFRCQVQFYGLSENDEWTQDRAKPVTQIVSAEAWGRADCGFTSESYQQGVLSATILYEILLGKATLYAVLVSALVLMAMVKRKDSRG,2
3,TCR_96: TCR to … / A*02:01 (protein) TCR alpha: RKEVEQDPGPFNVPEGATVAFNCTYSNSASQSFFWYRQDCRKEPKLLMSVYSSGNEDGRFTAQLNRASQYISLLIRDSKLSDSATYLCVVNEEDKLIFGTGTRLQVFPNIQNPDPAVYQLRDSKSSDKSVCLFTDFDSQTNVSQSKDSDVYITDKTVLDMRSMDFKSNSAVAWSNKSDFACANAFNNSIIPEDTFFPSPESSCDVKLVEKSFETDTNLNFQNLSVIGFRILLLKVAGFNLLMTLRLWSS TCR beta: DTGVSQNPRHKITKRGQNVTFRCDPISEHNRLYWYRQTLGQGPEFLTYFQNEAQLEKSRLLSDRFSAERPKGSFSTLEIQRTEQGDSAMYLCAGSTSLTGELFFGEGSRLTVLEDLKNVFPPKVAVFEPSEAEISHTQKATLVCLATGFYPDHVELSWWVNGKEVHSGVSTDPQPLKEQPALNDSRYCLSSRLRVSATFWQNPRNHFRCQVQFYGLSENDEWTQDRAKPVTQIVSAEAWGRADCGFTSESYQQGVLSATILYEILLGKATLYAVLVSALVLMAMVKRKDSRG,2
4,TCR_88: TCR to … / A*02:01 (protein) TCR alpha: AQKITQTQPGMFVQEKEAVTLDCTYDTSDPSYGLFWYKQPSSGEMIFLIYQGSYDQQNATEGRYSLNFQKARKSANLVISASQLGDSAMYFCAMRRPGANNLFFGTGTRLTVIPYIQNPDPAVYQLRDSKSSDKSVCLFTDFDSQTNVSQSKDSDVYITDKTVLDMRSMDFKSNSAVAWSNKSDFACANAFNNSIIPEDTFFPSPESSCDVKLVEKSFETDTNLNFQNLSVIGFRILLLKVAGFNLLMTLRLWSS TCR beta: ETGVTQTPRHLVMGMTNKKSLKCEQHLGHNAMYWYKQSAKKPLELMFVYSLEERVENNSVPSRFSPECPNSSHLFLHLHTLQPEDSALYLCASSAQEGRIEMNTEAFFGQGTRLTVVEDLNKVFPPEVAVFEPSEAEISHTQKATLVCLATGFFPDHVELSWWVNGKEVHSGVSTDPQPLKEQPALNDSRYCLSSRLRVSATFWQNPRNHFRCQVQFYGLSENDEWTQDRAKPVTQIVSAEAWGRADCGFTSVSYQQGVLSATILYEILLGKATLYAVLVSALVLMAMVKRKDF,2
5,TCR_92: TCR to … / B*07:02 (protein) TCR alpha: ILNVEQSPQSLHVQEGDSTNFTCSFPSSNFYALHWYRWETAKSPEALFVMTLNGDEKKKGRISATLNTKEGYSYLYIKGSQPEDSATYLCALDYGQNFVFGPGTRLSVLPYIQNPDPAVYQLRDSKSSDKSVCLFTDFDSQTNVSQSKDSDVYITDKTVLDMRSMDFKSNSAVAWSNKSDFACANAFNNSIIPEDTFFPSPESSCDVKLVEKSFETDTNLNFQNLSVIGFRILLLKVAGFNLLMTLRLWSS TCR beta: MSNQVLCCVVLCFLGANTVDGGITQSPKYLFRKEGQNVTLSCEQNLNHDAMYWYRQDPGQGLRLIYYSQIVNDFQKGDIAEGYSVSREKKESFPLTVTSAQKNPTAFYLCASSIGSREAFFGQGTRLTVVEDLNKVFPPEVAVFEPSEAEISHTQKATLVCLATGFFPDHVELSWWVNGKEVHSGVSTDPQPLKEQPALNDSRYCLSSRLRVSATFWQNPRNHFRCQVQFYGLSENDEWTQDRAKPVTQIVSAEAWGRADCGFTSVSYQQGVLSATILYEILLGKATLYAVLVSALVLMAMVKRKDF,2
6,TCR_89: TCR to … / B*07:02 (protein) TCR alpha: GENVEQHPSTLSVQEGDSAVIKCTYSDSASNYFPWYKQELGKGPQLIIDIRSNVGEKKDQRIAVTLNKTAKHFSLHITETQPEDSAVYFCAAPTNNNDMRFGAGTRLTVKPNIQNPDPAVYQLRDSKSSDKSVCLFTDFDSQTNVSQSKDSDVYITDKTVLDMRSMDFKSNSAVAWSNKSDFACANAFNNSIIPEDTFFPSPESSCDVKLVEKSFETDTNLNFQNLSVIGFRILLLKVAGFNLLMTLRLWSS TCR beta: MSLGLLCCGVFSLLWAGPVNAGVTQTPKFRVLKTGQSMTLLCAQDMNHEYMYWYRQDPGMGLRLIHYSVGEGTTAKGEVPDGYNVSRLKKQNFLLGLESAAPSQTSVYFCASSYVTGASYEQYFGPGTRLTVTEDLKNVFPPKVAVFEPSEAEISHTQKATLVCLATGFYPDHVELSWWVNGKEVHSGVSTDPQPLKEQPALNDSRYCLSSRLRVSATFWQNPRNHFRCQVQFYGLSENDEWTQDRAKPVTQIVSAEAWGRADCGFTSESYQQGVLSATILYEILLGKATLYAVLVSALVLMAMVKRKDSRG,2
7,TCR_90: TCR to … / A*02:01 (protein) TCR alpha: RKEVEQDPGPFNVPEGATVAFNCTYSNSASQSFFWYRQDCRKEPKLLMSVYSSGNEDGRFTAQLNRASQYISLLIRDSKLSDSATYLCVVNDPAGSYQLTFGKGTKLSVIPNIQNPDPAVYQLRDSKSSDKSVCLFTDFDSQTNVSQSKDSDVYITDKTVLDMRSMDFKSNSAVAWSNKSDFACANAFNNSIIPEDTFFPSPESSCDVKLVEKSFETDTNLNFQNLSVIGFRILLLKVAGFNLLMTLRLWSS TCR beta: DTAVSQTPKYLVTQMGNDKSIKCEQNLGHDTMYWYKQDSKKFLKIMFSYNNKELIINETVPNRFSPKSPDKAHLNLHINSLELGDSAVYFCASSPPSGGNTGELFFGEGSRLTVLEDLKNVFPPKVAVFEPSEAEISHTQKATLVCLATGFYPDHVELSWWVNGKEVHSGVSTDPQPLKEQPALNDSRYCLSSRLRVSATFWQNPRNHFRCQVQFYGLSENDEWTQDRAKPVTQIVSAEAWGRADCGFTSESYQQGVLSATILYEILLGKATLYAVLVSALVLMAMVKRKDSRG,2
8,TCR_97: TCR to … / B*07:02 (protein) TCR alpha: AQRVTQPEKLLSVFKGAPVELKCNYSYSGSPELFWYVQYSRQRLQLLLRHISRESIKGFTADLNKGETSFHLKKPFAQEEDSAMYYCALSYSDGQKLLFARGTMLKVDLNIQNPDPAVYQLRDSKSSDKSVCLFTDFDSQTNVSQSKDSDVYITDKTVLDMRSMDFKSNSAVAWSNKSDFACANAFNNSIIPEDTFFPSPESSCDVKLVEKSFETDTNLNFQNLSVIGFRILLLKVAGFNLLMTLRLWSS TCR beta: KAGVTQTPRYLIKTRGQQVTLSCSPISGHRSVSWYQQTPGQGLQFLFEYFSETQRNKGNFPGRFSGRQFSNSRSEMNVSTLELGDSALYLCASSLAGGWGTEAFFGQGTRLTVVEDLNKVFPPEVAVFEPSEAEISHTQKATLVCLATGFFPDHVELSWWVNGKEVHSGVSTDPQPLKEQPALNDSRYCLSSRLRVSATFWQNPRNHFRCQVQFYGLSENDEWTQDRAKPVTQIVSAEAWGRADCGFTSVSYQQGVLSATILYEILLGKATLYAVLVSALVLMAMVKRKDF,2
9,TCR_94: TCR to … / A*02:01 (protein) TCR alpha: AQKVTQAQTEISVVEKEDVTLDCVYETRDTTYYLFWYKQPPSGELVFLIRRNSFDEQNEISGRYSWNFQKSTSSFNFTITASQVVDSAVYFCALSLIIYNQGGKLIFGQGTELSVKPNIQNPDPAVYQLRDSKSSDKSVCLFTDFDSQTNVSQSKDSDVYITDKTVLDMRSMDFKSNSAVAWSNKSDFACANAFNNSIIPEDTFFPSPESSCDVKLVEKSFETDTNLNFQNLSVIGFRILLLKVAGFNLLMTLRLWSS TCR beta: NAGVTQTPKFRVLKTGQSMTLLCAQDMNHEYMYWYRQDPGMGLRLIHYSVGEGTTAKGEVPDGYNVSRLKKQNFLLGLESAAPSQTSVYFCASSPTSGSRETQYFGPGTRLLVLEDLKNVFPPKVAVFEPSEAEISHTQKATLVCLATGFYPDHVELSWWVNGKEVHSGVSTDPQPLKEQPALNDSRYCLSSRLRVSATFWQNPRNHFRCQVQFYGLSENDEWTQDRAKPVTQIVSAEAWGRADCGFTSESYQQGVLSATILYEILLGKATLYAVLVSALVLMAMVKRKDSRG,2
10,TCR_95: TCR to … / A*02:01 (protein) TCR alpha: RKEVEQDPGPFNVPEGATVAFNCTYSNSASQSFFWYRQDCRKEPKLLMSVYSSGNEDGRFTAQLNRASQYISLLIRDSKLSDSATYLCVVNNAGNMLTFGGGTRLMVKPHIQNPDPAVYQLRDSKSSDKSVCLFTDFDSQTNVSQSKDSDVYITDKTVLDMRSMDFKSNSAVAWSNKSDFACANAFNNSIIPEDTFFPSPESSCDVKLVEKSFETDTNLNFQNLSVIGFRILLLKVAGFNLLMTLRLWSS TCR beta: MGPGLLHWMALCLLGTGHGDAMVIQNPRYQVTQFGKPVTLSCSQTLNHNVMYWYQQKSSQAPKLLFHYYDKDFNNEADTPDNFQSRRPNTSFCFLDIRSPGLGDAAMYLCATQNLNTGELFFGEGSRLTVLEDLKNVFPPKVAVFEPSEAEISHTQKATLVCLATGFYPDHVELSWWVNGKEVHSGVSTDPQPLKEQPALNDSRYCLSSRLRVSATFWQNPRNHFRCQVQFYGLSENDEWTQDRAKPVTQIVSAEAWGRADCGFTSESYQQGVLSATILYEILLGKATLYAVLVSALVLMAMVKRKDSRG,2
